In publication PMC7227451:

Target: recombinant hACE2 (human) (UniProt Q9BYF1)
Assay: BLI
Details: Fc fusion

Work on “SARS-CoV RBD-hFc (from UniProt P59594 306-527)” yielded a koff of 0.00115 s⁻¹.
